Measured values from several laboratories, pooled; numbers as filed in NIAID ChemDB.

All rows: tests in culture; organism: Hepatitis B virus; read by: PCR; read-out: EC50

ECn: concentration that inhibits the pathogen or its effect by n%.

Cc1c(C(=O)N2Cc3c(nn4c3C(=O)N([C@@H](C)c3ccc(OC(F)F)cc3)CC4)C[C@H]2C)ccc(Cl)c1C#N ; cell line: HepG2.117 ; value: 0.083 µM
O=C(c1ccc(Br)c(Cl)c1)N1CCS(=O)(=O)[C@@](F)(c2ncc(Cc3ccccc3-c3ncccn3)s2)C1 ; cell line: HepG2.117 ; value: <0.1 µM
NC(=O)c1cccc(-n2c(C(=O)NCc3ccccc3)c3n(c2=O)CCN(C(=O)c2ccc(Br)c(Cl)c2)C3)c1 ; cell line: HepG2.117 ; value: >5 µM
O=C(Nc1ccccc1)C1CN(C(=O)c2ccc(Br)c(Cl)c2)CCS1(=O)=O ; cell line: HepG2.117 ; value: 0.5–5 µM
Cc1cc(C)n(-c2nc3c(c(=O)n2-c2ccc(OC4CC(O)C4)nc2)C[C@@H](C)N(C(=O)c2ccc(Br)c(C(F)(F)F)c2)C3)n1 ; cell line: HepG2.117 ; strain or isolate: Genotype D ; value: ≤0.05 µM
Cc1cc(C(=O)N2CCS(=O)(=O)[C@H](c3cccs3)C2)ccc1Cl ; cell line: HepG2.2.15 ; value: 0.1–0.5 µM
Cn1cc2c(c1C(=O)Nc1ccc(F)c(Cl)c1)OC[C@@]1(CCN(C(=O)C(=O)NCC(F)(F)F)C1)NS2(=O)=O ; cell line: HepAD38 ; strain or isolate: Genotype D ; value: <0.5 µM
Cc1cc(NC(=O)c2c3c(cn2C)S(=O)(=O)NC2(C)CN(C(=O)C(=O)NC4CC4)CC2CO3)ccc1F ; cell line: HepAD38 ; value: <0.5 µM
CNC(=O)c1ccc(-n2c(=O)c3c(n4ncc(Cc5ccccc5)c24)CN(C(=O)c2ccc(Br)c(Cl)c2)CC3)cc1 ; cell line: HepG2.117 ; conditions: 3 d ; value: <0.1 µM
C[C@@H]1Cc2nn3c(c2CN1C(=O)c1ccc(Cl)c(C#N)c1)C(=O)N([C@@H](C)c1cccc(OC(F)(F)F)c1)CC3 ; cell line: HepG2.117 ; value: 0.175 µM
C[C@]1(C(=O)NCc2ccccc2)CN(C(=O)c2ccc(Br)c(Cl)c2)CCS1(=O)=O ; cell line: HepG2.117 ; value: 0.5–5 µM
Cc1cc2occc2cc1CNC(=O)c1c2n(c(=O)n1-c1ccc(OCC(F)(F)F)cc1)CCN(C(=O)c1ccc(Br)c(Cl)c1)C2 ; cell line: HepG2.117 ; value: 0.1–0.5 µM
C[C@H]1c2[nH]nc(-c3ncccn3)c2CN(C(=O)Nc2ccc(F)c(C#N)c2)[C@H]1C ; cell line: HepG2.2.15 ; value: 0.028 µM
CC(C)Oc1ccc(-n2c(-c3ncc(-c4ccccc4)o3)c3n(c2=O)CCN(C(=O)c2ccc(Br)c(Cl)c2)C3)cc1 ; cell line: HepG2.117 ; value: >5 µM
Cn1cc2c(c1C(=O)Nc1ccc(F)c(Cl)c1)OCC1(CCN(C(=O)C(=O)NCC(F)(F)F)CC1)NS2(=O)=O ; cell line: HepAD38 ; strain or isolate: Genotype D ; value: <0.5 µM
CC(=O)Nc1ccc([C@@H](C)N2CCn3nc4c(c3C2=O)CN(C(=O)c2ccc(Br)c(C#N)c2)[C@H](C)C4)cc1 ; cell line: HepG2.117 ; value: 0.012 µM
C=C[C@H](C)Nc1nc2c(c(=O)n1-c1ccc(C(=O)NC)cc1)C[C@@H](C)N(C(=O)c1ccc(Br)c(C(F)(F)F)c1)C2 ; cell line: HepG2.117 ; strain or isolate: Genotype D ; value: <0.05 µM
O=C(CNC(=O)c1cccc(F)c1)Nc1ccc(Cl)nc1Cl ; cell line: HepG2.2.15 ; value: >100 µM
C=C[C@H](C)Nc1nc2c(c(=O)n1-c1ccc(C(=O)N(C)C(=O)OCOC(=O)C[C@H](O)C(=O)O)cc1)C[C@@H](C)N(C(=O)c1ccc(Br)c(C(F)(F)F)c1)C2 ; cell line: HepG2.117 ; strain or isolate: Genotype D ; value: <0.05 µM
COc1ccc(-n2c(C(=O)NCc3cccc(C#N)c3)c3n(c2=O)CCN(C(=O)c2ccc(Cl)c(Cl)c2)C3)cc1 ; cell line: HepG2.117 ; value: 0.5–5 µM
C[C@@H](NC(=O)C(=O)N1CC[C@]2(COc3c(cn(C)c3C(=O)Nc3ccc(F)c(C(F)F)c3)S(=O)(=O)N2)C1)C(F)(F)F ; cell line: HepAD38 ; strain or isolate: Genotype D ; value: <0.5 µM
Cn1c(=O)c2c(n3nccc13)CN(C(=O)Nc1ccc(F)c(Cl)c1)CC2 ; cell line: HepG2.117 ; conditions: 3 d ; value: 0.5–5 µM
C[C@@H](NC(=O)C(=O)N1CCC2(CC1)COc1c(cn(C)c1C(=O)Nc1ccc(F)c(Cl)c1)S(=O)(=O)N2)C(F)(F)F ; cell line: HepAD38 ; strain or isolate: Genotype D ; value: <0.5 µM
Cc1cnn2c3c(c(=O)n(-c4ccccc4)c12)CCN(C(=O)c1ccc(Br)c(Cl)c1)C3 ; cell line: HepG2.117 ; conditions: 3 d ; value: 0.1–0.5 µM
C[C@H]1Cc2[nH]nc(-c3cscn3)c2CN1C(=O)Nc1ccc(F)c(C#N)c1 ; cell line: HepG2.2.15 ; value: 0.015 µM
Cc1cc(C)n(-c2nc3c(c(=O)n2-c2ccc(NC[C@H](C)O)nc2)C[C@@H](C)N(C(=O)c2ccc(Br)c(C(F)(F)F)c2)C3)n1 ; cell line: HepG2.117 ; strain or isolate: Genotype D ; value: ≤0.05 µM
C[C@@H]1Cc2nn3c(c2CN1C(=O)c1ccc(Cl)c(C#N)c1Cl)C(=O)N([C@@H](C)c1ccc(OC(F)F)cc1)CC3 ; cell line: HepG2.117 ; value: 0.2 µM
O=C(CNC(=O)c1ccc(F)cc1)Nc1ccc(Cl)nc1Cl ; cell line: HepG2.2.15 ; value: 0.88 µM
Cn1cc2c(c1C(=O)Nc1ccc(F)c(Cl)c1)OC[C@@]1(CCN(C(=O)C(=O)NC(C)(C)C(F)(F)F)C1)NS2(=O)=O ; cell line: HepAD38 ; strain or isolate: Genotype D ; value: <0.5 µM
C=C[C@H](C)Nc1nc2c(c(=O)n1-c1ccc(C(=O)N(C)C(=O)OCOC(=O)/C=C/C(=O)O)cc1)C[C@@H](C)N(C(=O)c1ccc(Br)c(C(F)(F)F)c1)C2 ; cell line: HepG2.117 ; strain or isolate: Genotype D ; value: <0.05 µM
C[C@@H]1Cc2nn3c(c2CN1C(=O)c1ccc(Cl)c(C#N)c1)C(=O)N([C@H](C)c1cccc(NS(C)(=O)=O)c1)CC3 ; cell line: HepG2.117 ; value: 0.442 µM
Cc1cc(C)n(-c2nc3c(c(=O)n2-c2ccc4c(c2)ncn4C)C[C@@H](C)N(C(=O)c2ccc(Br)c(C(F)(F)F)c2)C3)n1 ; cell line: HepG2.117 ; strain or isolate: Genotype D ; value: ≤0.05 µM
CC(=O)Nc1cccc([C@@H](C)N2CCn3cc4c(c3C2=O)CN(C(=O)c2ccc(Cl)c(C#N)c2)[C@H](C)C4)c1 ; cell line: HepG2.117 ; value: 0.047 µM
C=C[C@H](C)Nc1nc2c(c(=O)n1-c1ccc(C(=O)N(C)C(=O)OCOC(=O)[C@H](N)C(C)C)cc1)C[C@@H](C)N(C(=O)c1ccc(Br)c(C(F)(F)F)c1)C2 ; cell line: HepG2.117 ; strain or isolate: Genotype D ; value: <0.05 µg/mL
C[C@H](NC(=O)C(=O)N1CC2(COc3c(cn(C)c3C(=O)Nc3ccc(F)c(Cl)c3)S(=O)(=O)N2)C1)C(F)(F)F ; cell line: HepAD38 ; strain or isolate: Genotype D ; value: <0.5 µM
Cc1cc(C)n(-c2nc3c(c(=O)n2-c2ccc(OC[C@@H](C)O)cc2)C[C@@H](C)N(C(=O)c2ccc(Br)c(C(F)(F)F)c2)C3)n1 ; cell line: HepG2.117 ; strain or isolate: Genotype D ; value: ≤0.05 µM
CC(=O)Nc1ccc([C@H](C)N2CCn3nc4c(c3C2=O)CN(C(=O)c2ccc(Br)c(C#N)c2)[C@H](C)C4)cc1 ; cell line: HepG2.117 ; value: 0.025 µM
C[C@@H](NC(=O)c1c2n(c(=O)n1-c1ccc(OC3CC3)cc1)CCN(C(=O)c1ccc(Br)c(Cl)c1)C2)c1cccc2nccnc12 ; cell line: HepG2.117 ; value: 0.1–0.5 µM
C[C@@H]1[C@@H](C)c2[nH]nc(-c3ncccn3)c2CN1C(=O)Nc1ccnc(Br)c1F ; cell line: HepG2.2.15 ; value: 0.032 µM
Cc1cc(NC(=O)c2c3c(cn2C)S(=O)(=O)N[C@H]2CN(C(=O)C(=O)N[C@H](C)C(F)(F)F)C[C@H]2CO3)ccc1F ; cell line: HepG2 ; changes: L37Q ; value: 0.00872 µM
CNC(=O)c1ccc(-n2c(=O)c3c(n4ncc(NCc5ccc(C#N)cc5)c24)CN(C(=O)c2ccc(Br)c(Cl)c2)CC3)cc1 ; cell line: HepG2.117 ; conditions: 3 d ; value: 0.1–0.5 µM
O=C(c1ccc(Br)c(Cl)c1)N1CCS(=O)(=O)[C@@](F)(C(=O)NCCc2ccccc2)C1 ; cell line: HepG2.117 ; value: 0.5–5 µM
Cc1cc(NC(=O)c2c3c(cn2C)S(=O)(=O)N[C@H]2CN(C(=O)C(=O)NC4(C)CC4)C[C@H]2CS3)ccc1F ; cell line: HepAD38 ; value: <0.5 µM
Cc1cc(C)n(-c2nc3c(c(=O)n2-c2ccc(OC[C@H](O)CO)cc2)C[C@@H](C)N(C(=O)c2ccc(Br)c(C(F)(F)F)c2)C3)n1 ; cell line: HepG2.117 ; strain or isolate: Genotype D ; value: ≤0.05 µM
Cn1cc2c(c1C(=O)Nc1ccc(F)c(C(F)F)c1)OCC1(CCN(C(=O)C(=O)NC(C)(C)C(F)(F)F)CC1)NS2(=O)=O ; cell line: HepAD38 ; strain or isolate: Genotype D ; value: <0.5 µM
Cc1cc(NC(=O)c2c3c(c(Br)n2C)S(=O)(=O)N[C@H]2CN(C(=O)C(=O)N[C@H](C)C(F)(F)F)C[C@H]2CO3)ccc1F ; cell line: HepAD38 ; value: <0.5 µM
C[C@@H](c1cnc([C@]2(F)CN(C(=O)c3ccc(Br)c(C#N)c3)CCS2(=O)=O)s1)c1ccccc1F ; cell line: HepG2.117 ; value: 0.5–5 µM
C=C1CN(Cc2ccccc2)C(=O)c2c3n(c(=O)n2C1)CCN(C(=O)c1ccc(Br)c(Cl)c1)C3 ; cell line: HepG2.117 ; value: 0.1–0.5 µM
C[C@@H](NC(=O)C(=O)N1C[C@H]2COc3c(cn(C)c3C(=O)Nc3ccc(F)c(C(F)(F)F)c3)S(=O)(=O)N[C@H]2C1)C(F)(F)F ; cell line: HepAD38 ; value: <0.5 µM
C[C@@H]1Cc2nn3c(c2CN1C(=O)c1ccc(Cl)c(C#N)c1)C(=O)N([C@H](C)c1ccc(C(F)(F)F)cc1)CC3 ; cell line: HepG2.117 ; value: 0.037 µM
CC(C)NC(=O)c1ccc(-n2c(=O)c3c(n4ncc(Cc5ccccc5)c24)CN(C(=O)c2ccc(Br)c(Cl)c2)CC3)cc1 ; cell line: HepG2.117 ; conditions: 3 d ; value: 0.5–5 µM
COc1ccc(CN2CCn3c(c4n(c3=O)CCN(C(=O)Nc3ccc(F)c(Cl)c3)C4)C2=O)cc1 ; cell line: HepG2.2.15 ; value: >5 µM
C[C@@]1(C(=O)NCc2ccccc2)CN(C(=O)c2ccc(Br)c(Cl)c2)CCS1(=O)=O ; cell line: HepG2.117 ; value: 0.1–0.5 µM
CNC(=O)c1ccc(-n2c(=O)c3c(n4ncc(Cc5ccccc5)c24)CN(C(=O)c2ccc(Br)c(C#N)c2)[C@H](C)C3)cc1 ; cell line: HepG2.117 ; conditions: 3 d ; value: <0.1 µM
COc1cccc(NC(=O)NCC(=O)Nc2ccc(Cl)nc2Cl)c1 ; cell line: HepG2.2.15 ; value: >100 µM

Repeating the final 3 entries:

compound,cell line,changes,conditions,strain or isolate,value
C[C@@]1(C(=O)NCc2ccccc2)CN(C(=O)c2ccc(Br)c(Cl)c2)CCS1(=O)=O,HepG2.117,-,-,-,0.1–0.5 µM
CNC(=O)c1ccc(-n2c(=O)c3c(n4ncc(Cc5ccccc5)c24)CN(C(=O)c2ccc(Br)c(C#N)c2)[C@H](C)C3)cc1,HepG2.117,-,3 d,-,<0.1 µM
COc1cccc(NC(=O)NCC(=O)Nc2ccc(Cl)nc2Cl)c1,HepG2.2.15,-,-,-,>100 µM

An empty or dashed field is not shown. Two numbers with a dash give a range or band. Lines come from different laboratories, so protocols vary.